Experimental data from PMC9913434.

By UniProt entry, the sequences of proteins in these tests, tags left out. Where a name states a change or a piece, a line headed by the entry shows the natural chain unless it says otherwise.
UniProt P0AE88: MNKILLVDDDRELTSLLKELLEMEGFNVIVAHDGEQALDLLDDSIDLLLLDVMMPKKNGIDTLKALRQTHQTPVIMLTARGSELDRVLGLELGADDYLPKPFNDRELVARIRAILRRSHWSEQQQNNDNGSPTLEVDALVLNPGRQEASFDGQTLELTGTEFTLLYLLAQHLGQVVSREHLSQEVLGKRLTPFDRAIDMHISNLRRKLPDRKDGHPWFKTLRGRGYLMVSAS

Molecular target: His6-CpxR (Escherichia coli (avian pathogenic, APEC40)) (UniProt P0AE88)
Assay: EMSA
Settings: shift at 1, 2 and 4 uM CpxR, 200 fM probe, unlabeled probe 2 pM as competition control, 5x binding buffer ([…], 30 min at room temperature, recombinant protein, residues 1-232, label: biotin (forward primer p-emrKY-biotin-f), probe letters rebuilt from the primers and the genome

TCTCCCTTCTCCCTGTAGTAATACAGACATAAGGCGTCATCTCATTTTCTCAATAAAAATAAGAAAATCTGAGCTTCCTTTAAGATAATTCGACAAGTATACCATATAAATAGTCGGCATAAATGAAATGTCAACAATAAAATCAGGGATTGTACCGATGATTTATAGTTTCAAGTTGGCACTATAAGTCTTCTTACTAATCCTACAGGCGTAAGAATTGTATTGCAAAAGCCACGGTTTAGTCCTCTGTTGTTTTTTTTGCACCTCATTTAAATTAGGCCTCCAACGTTCCTGGGATAATGTGCAACACATGCACTGTGTTTGATATGAAGAATGAATGCTCTTTTCATTCAATTCATAAATTTCATCTATGAGAAATGAGAGATAATA (double strand) [emrKY promoter]
binding result: binds

For at least one entry, the source does not settle the construct or the ends of the probe.
